{"source": "PubChem BioAssay AID504761 (Drosophila RNAi Screening Center, 2011)", "test": "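Insect host genes that dengue virus relies on to spread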 (primary screen)", "cell system": "D.Mel-2 cells from Drosophila", "reagents": "long dsRNA against Drosophila genes", "conditions": "infection with dengue virus type 2; dose and infection time not stated", "measured": "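Per well on two replicate plates, imaging gave the percent of cells positive for viral envelope protein, ranked by infection, and a nuclear count of cells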", "direction": "infection score: higher = more virus-infected cells; cell count: higher = more cells in the well", "call rule": "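Very low infection ranking in both replicate wells (chance probability at most 0.065), then a retest showing infection dropped 1.5-fold or more at p below 0.05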", "meaning of the calls": "active = confirmed: knock-down lowers infection; inactive = not picked or not confirmed", "note": "The screen tested about 22,000 reagents; this is a random part of those that have a named target and a result. Of all reagents, 116 (0.52%) were called active. 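Calls depend on retest data that are not deposited; infection was ranked per plate without normalising between plates; the unit of the infection score is not given.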 Raw values vary from plate to plate and are shown uncorrected. Unmarked entries are inactive. Further read-outs or replicates are left out here. Not given: the amount of reagent, the time to read-out."}
{"target gene": "Zip42C.1", "DRSC id": "DRSC05003", "infection score, replicate 1": 6.88, "cell count, replicate 1": 6906}
{"target gene": "CG31688", "DRSC id": "DRSC02682", "infection score, replicate 1": 3.36, "cell count, replicate 1": 6610}
{"target gene": "CG31688", "DRSC id": "DRSC26711", "infection score, replicate 1": 1.07, "cell count, replicate 1": 6260}
{"target gene": "Gpo2", "DRSC id": "DRSC06822", "infection score, replicate 1": 7.45, "cell count, replicate 1": 6590}
{"target gene": "CG42514", "DRSC id": "DRSC10428", "infection score, replicate 1": 6.68, "cell count, replicate 1": 6404}
{"target gene": "CG33463", "DRSC id": "DRSC22915", "infection score, replicate 1": 4.67, "cell count, replicate 1": 6763}
{"target gene": "CG33463", "DRSC id": "DRSC29923", "infection score, replicate 1": 20.1, "cell count, replicate 1": 6430}
{"target gene": "dac", "DRSC id": "DRSC03518", "infection score, replicate 1": 4.41, "cell count, replicate 1": 6168}
{"target gene": "CG1575", "DRSC id": "DRSC18069", "infection score, replicate 1": 23.5, "cell count, replicate 1": 5404}
{"target gene": "CG1575", "DRSC id": "DRSC27030", "infection score, replicate 1": 4.29, "cell count, replicate 1": 6129}
{"target gene": "Su(z)2", "DRSC id": "DRSC22970", "infection score, replicate 1": 2.19, "cell count, replicate 1": 6477}
{"target gene": "Tnpo", "DRSC id": "DRSC11309", "infection score, replicate 1": 9.32, "cell count, replicate 1": 5247}
{"target gene": "Tnpo", "DRSC id": "DRSC25104", "infection score, replicate 1": 3.26, "cell count, replicate 1": 6079}

Reformatted: entries from further up.
target gene,DRSC id,"infection score, replicate 1","cell count, replicate 1"
CG1575,DRSC27030,4.29,6129
Su(z)2,DRSC22970,2.19,6477
